Source: PMC13347698 (Analytical Chemistry, 2026)

Molecular target: wild-type 3CL^pro (Severe acute respiratory syndrome coronavirus 2, UniProt P0DTD1)
Type: binding, SARS-CoV-2

CC(C)(C)c1ccc(N(C(=O)c2c[nH]cn2)[C@@H](C(=O)NC2CCCCC2)c2cccnc2)cc1 [X77]
ΔG: -7.6 kcal mol -1
